Record: PubChem BioAssay AID624099 (ICCB-Longwood, 2012)
In all, the deposit lists about 21,000 reagents; below is an unselected part. Over the whole deposit, 497 (2.4%) got an active call. 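Higher z means weaker E2 silencing; only reporter increases were scored, and knock-downs that hurt cell survival may mask genuine repressor factors.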 The numbers tell different reagents against one gene apart.

Test: 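Human genes that papillomavirus E2 requires to repress the HPV18 LCR promoter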 (primary screen)
System: human C33A cervical carcinoma cells (HPV-negative) stably expressing BPV1 E2 and an HPV18 LCR luciferase reporter
Reagents: siRNA pool against human genes, 40 nM
Timing: 72 h
Measurement: 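HPV18 LCR reporter light per well, converted to plate-wise z-scores that exclude control wells, and averaged over triplicate plates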
Direction: mean z-score and z-score: higher = stronger reporter signal, weaker E2 silencing
Active means: 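Mean z ≥ 2 together with z ≥ 2 in two or more of the three replicates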

| Gene | reagent no. | mean z-score | z-score, replicate A | z-score, replicate B | z-score, replicate C | Outcome |
| --- | --- | --- | --- | --- | --- | --- |
| LOC400741 (retired record) (GeneID 400741) | 1 | 0.85 | 0.79 | 0.92 | 0.84 | inactive |
| KLRA1P (GeneID 10748) | 1 | 0.74 | 0.56 | 0.83 | 0.82 | inactive |
| NAA80 (GeneID 24142) | 1 | -0.29 | -0.22 | 0.04 | -0.69 | inactive |
| FOXF2 (GeneID 2295) | 1 | 0.4 | 0.46 | 0.01 | 0.73 | inactive |
| RAB30 (GeneID 27314) | 1 | -1.01 | -0.99 | -1.08 | -0.97 | inactive |
| CSRP3 (GeneID 8048) | 1 | -0.84 | -1.05 | -0.62 | -0.85 | inactive |
| RBM15B (GeneID 29890) | 1 | 0.02 | 0.4 | 0.05 | -0.38 | inactive |
| TESC (GeneID 54997) | 1 | -0.49 | -0.39 | -0.11 | -0.97 | inactive |
| ABTB1 (GeneID 80325) | 1 | 0.47 | 0.56 | 0.42 | 0.43 | inactive |
| LOC84843 (retired record) (GeneID 84843) | 1 | -0.36 | -0.11 | -0.66 | -0.31 | inactive |
| RAB2B (GeneID 84932) | 1 | 1.49 | 1.43 | 1.53 | 1.51 | inactive |
| LINC00547 (GeneID 400121) | 1 | 0.86 | 0.79 | 0.7 | 1.09 | inactive |
| ITGB1BP2 (GeneID 26548) | 1 | -1.38 | -1.09 | -1.24 | -1.83 | inactive |
| SYNDIG1 (GeneID 79953) | 1 | -0.16 | -0.04 | -0.2 | -0.23 | inactive |
| APOBEC4 (GeneID 403314) | 1 | -0.09 | 0.19 | 0.21 | -0.66 | inactive |
| XKR3 (GeneID 150165) | 1 | -0.21 | -0.01 | -0.21 | -0.43 | inactive |
| FAT3 (GeneID 120114) | 1 | 0.52 | 0.78 | 0.48 | 0.31 | inactive |
| FAT3 (GeneID 120114) | 2 | 1.98 | 1.84 | 1.61 | 2.5 | inactive |
| SCML4 (GeneID 256380) | 1 | 1.1 | 1.37 | 0.95 | 0.99 | inactive |
| LOC390738 (retired record) (GeneID 390738) | 1 | 0.69 | 1.21 | 0.5 | 0.37 | inactive |
| EGFL8 (GeneID 80864) | 1 | 0.85 | 1.16 | 0.51 | 0.9 | inactive |
| EPHB3 (GeneID 2049) | 1 | 0.98 | 1.34 | 0.98 | 0.63 | inactive |
| GAB1 (GeneID 2549) | 1 | -0.13 | 0.05 | -0.18 | -0.25 | inactive |
| GPR39 (GeneID 2863) | 1 | 1.11 | 0.89 | 1.49 | 0.96 | inactive |
| SLC44A1 (GeneID 23446) | 1 | -1 | -1 | -1.33 | -0.67 | inactive |
| ORAI1 (GeneID 84876) | 1 | 1.3 | 1.51 | 1.02 | 1.36 | inactive |
| CAVIN3 (GeneID 112464) | 1 | -0.38 | -0.66 | 0.1 | -0.58 | inactive |
| PSME2 (GeneID 5721) | 1 | -0.57 | -0.77 | -0.52 | -0.42 | inactive |
| OR6N2 (GeneID 81442) | 1 | 0.28 | 0.9 | 0.06 | -0.11 | inactive |
| PRSS58 (GeneID 136541) | 1 | 0.34 | 0.24 | 0.58 | 0.19 | inactive |
| SP2 (GeneID 6668) | 1 | -0.7 | -0.84 | -0.71 | -0.56 | inactive |

A stretch of the results above, as a working copy:
| Gene | reagent no. | mean z-score | z-score, replicate A | z-score, replicate B | z-score, replicate C | Outcome |
| --- | --- | --- | --- | --- | --- | --- |
| LINC00547 (GeneID 400121) | 1 | 0.86 | 0.79 | 0.7 | 1.09 | inactive |
| ITGB1BP2 (GeneID 26548) | 1 | -1.38 | -1.09 | -1.24 | -1.83 | inactive |
| SYNDIG1 (GeneID 79953) | 1 | -0.16 | -0.04 | -0.2 | -0.23 | inactive |
| APOBEC4 (GeneID 403314) | 1 | -0.09 | 0.19 | 0.21 | -0.66 | inactive |
| XKR3 (GeneID 150165) | 1 | -0.21 | -0.01 | -0.21 | -0.43 | inactive |
| FAT3 (GeneID 120114) | 1 | 0.52 | 0.78 | 0.48 | 0.31 | inactive |
| FAT3 (GeneID 120114) | 2 | 1.98 | 1.84 | 1.61 | 2.5 | inactive |
| SCML4 (GeneID 256380) | 1 | 1.1 | 1.37 | 0.95 | 0.99 | inactive |
| LOC390738 (retired record) (GeneID 390738) | 1 | 0.69 | 1.21 | 0.5 | 0.37 | inactive |

Next reagents follow.
| Gene | reagent no. | mean z-score | z-score, replicate A | z-score, replicate B | z-score, replicate C | Outcome |
| --- | --- | --- | --- | --- | --- | --- |
| LOC388298 (retired record) (GeneID 388298) | 1 | -0.34 | -0.29 | -0.32 | -0.4 | inactive |
| APOBEC3C (GeneID 27350) | 1 | 0.66 | 0.62 | 0.74 | 0.63 | inactive |
| BAHCC1 (GeneID 57597) | 1 | -1.16 | -1.37 | -0.9 | -1.2 | inactive |
| YIPF2 (GeneID 78992) | 1 | -0.14 | -0.31 | -0.06 | -0.05 | inactive |
| DTD1 (GeneID 92675) | 1 | -0.04 | -0.12 | -0.08 | 0.08 | inactive |
| LOC388416 (retired record) (GeneID 388416) | 1 | -1.7 | -1.65 | -1.61 | -1.83 | inactive |
| FAM50B (GeneID 26240) | 1 | -0.87 | -1.12 | -0.89 | -0.61 | inactive |
| PLP2 (GeneID 5355) | 1 | 0.25 | 0.08 | 0.67 | -0.01 | inactive |
| MTMR9 (GeneID 66036) | 1 | 0.35 | 0.18 | 0.6 | 0.27 | inactive |
| NPC2 (GeneID 10577) | 1 | -0.39 | -0.63 | -0.31 | -0.22 | inactive |
| ZNF669 (GeneID 79862) | 1 | 3.13 | 4.04 | 3.06 | 2.3 | active |
| NDUFA7 (GeneID 4701) | 1 | -0.05 | 0.02 | -0.09 | -0.07 | inactive |
| CNGB1 (GeneID 1258) | 1 | -0.05 | -0.12 | -0.22 | 0.2 | inactive |
| GTF3A (GeneID 2971) | 1 | -0.69 | -0.41 | -0.77 | -0.91 | inactive |
| CA5A (GeneID 763) | 1 | -0.2 | -0.15 | -0.34 | -0.12 | inactive |
| CCDC112 (GeneID 153733) | 1 | 0.33 | 1.17 | -0.08 | -0.09 | inactive |
| EIF3F (GeneID 8665) | 1 | -1.88 | -1.79 | -2 | -1.87 | inactive |
| ANKFN1 (GeneID 162282) | 1 | 0.59 | 0.77 | 0.48 | 0.52 | inactive |
| SLC25A31 (GeneID 83447) | 1 | -0.55 | -0.52 | -0.64 | -0.47 | inactive |
| C1orf94 (GeneID 84970) | 1 | 0.07 | 0.41 | -0.35 | 0.15 | inactive |
| CSNK2A2 (GeneID 1459) | 1 | -1.72 | -1.54 | -1.76 | -1.84 | inactive |
| RRS1 (GeneID 23212) | 1 | 0.96 | 1.21 | 0.51 | 1.16 | inactive |
| POU6F1 (GeneID 5463) | 1 | -0.81 | -0.89 | -0.69 | -0.86 | inactive |
| FAM110A (GeneID 83541) | 1 | 0.76 | 0.82 | 0.53 | 0.93 | inactive |
| LINC02209 (GeneID 286135) | 1 | -0.88 | -0.61 | -1.01 | -1.03 | inactive |
| COL6A3 (GeneID 1293) | 1 | 1 | 1.11 | 0.79 | 1.11 | inactive |
